Data on 1 molecule can be found in patent US20050169964A1, “Antibiotic calcium phosphate coating” (Howmedica Osteonics Corp., priority 2001, published 2005).

The nature of the data set: release of OP-1 from PA coated disks into PBS.

B1: OP-1® Osteogenic graft material: Osteogenic protein-1, a 36 kD homodimer protein in the TGI-β super-family; a bone morphogenic protein (protein, UniProt P18075 293-431, looked up)
Bone morphogenetic protein 7: STGSKQRSQNRSKTPKNQEALRMANVAENSSSDQRQACKKHELYVSFRDLGWQDWIIAPEGYAAYYCEGECAFPLNSYMNATNHAIVQTLVHFINPETVPKPCCAPTQLNAISVLYFDDSSNVILKKYRNMVVRACGCH
modifications: graft material
notes: Osteogenic protein-1, a 36 kD homodimer protein in the TGI-β super-family; a bone morphogenic protein
As to B1, the “mean bound at time zero” value (PA coated disks, after 3 hours incubation and washes) was determined as 1.685 nmol/disk. Under “PBS, 37° C.”, the “mean release at 1 hour” value was found to be 1.328 nmol/disk and the “mean release at 1 hour as percent of the value at time zero” value was “about 79%”. Besides, the maximum cumulative release result (after 3 days incubation at 37° C., FIG. 6) is listed as “about 92%”. The “percent release from PA coated coupons within the first hour” value (incubation at 37° C. in PBS, two experiments, FIG. 5) is recorded as 75-80%.
